The source of these data is patent US4520101A (priority 1983, dated 1985).

The test system of experiment [1] is desacetylcephalosporin C production. Nature of the experiment: Shake flask fermentations, additional phosphorous compounds (Example 6).
For experiment [2] the test system is unchanged. Kind of experiment: Fermentors, additional phosphorous compounds (Example 7).

SMILES strings stand for the structures.

As for `C=CCP(=O)(OCC)OCC`, in experiment [1], the “inhibitory activity with respect to desacetylcephalosporin C production” value (“inhibitory activity” for short) is “exhibited inhibitory activity”.
Still for that read-out and setting: to `CCCCOP(OCCCC)OCCCC` belongs “exhibited inhibitory activity”; to `ClCCOP(OCCCl)OCCCl`, “exhibited inhibitory activity”.
In the case of `CCOP(OCC)OP(OCC)OCC`, the “inhibitory activity” value in experiment [2] and in experiment [1] was “exhibited inhibitory activity” each time.
On to `ClP(Cl)OCC(Cl)(Cl)Cl`, for which the “inhibitory activity” value in experiment [2] and in experiment [1] was “exhibited inhibitory activity” each time.
As for `COP(=O)(CC#N)OC`, in experiment [1], the “inhibitory activity” value is listed as “exhibited inhibitory activity”.
